Test system: Pseudomonas aeruginosa C0214
Assay: Bacterial growth / checkerboard assay with kanamycin A
Details: panel C

Cc1cc(-c2c(Cl)cnc3[nH]ccc23)[nH]n1
growth curve reading (Kanamycin A 0 µg·mL-1, [10] 125 µM, 8 h): 0.2684
growth curve reading (Kanamycin A 0 µg·mL-1, [10] 125 µM, 9 h): 0.2792
growth curve reading (Kanamycin A 0 µg·mL-1, [10] 125 µM, 10 h): 0.2903
growth curve reading (Kanamycin A 0 µg·mL-1, [10] 125 µM, 11 h): 0.2996
growth curve reading (Kanamycin A 0 µg·mL-1, [10] 125 µM, 12 h): 0.3025
growth curve reading (Kanamycin A 0 µg·mL-1, [10] 125 µM, 13 h): 0.3085
growth curve reading (Kanamycin A 0 µg·mL-1, [10] 125 µM, 14 h): 0.3168
growth curve reading (Kanamycin A 0 µg·mL-1, [10] 125 µM, 15 h): 0.3231
growth curve reading (Kanamycin A 0 µg·mL-1, [10] 125 µM, 16 h): 0.3257
growth curve reading (Kanamycin A 0 µg·mL-1, [10] 125 µM, 17 h): 0.3208
growth curve reading (Kanamycin A 0 µg·mL-1, [10] 125 µM, 18 h): 0.3174
growth curve reading (Kanamycin A 0 µg·mL-1, [10] 125 µM, 19 h): 0.3133
growth curve reading (Kanamycin A 0 µg·mL-1, [10] 125 µM, 20 h): 0.3105
growth curve reading (Kanamycin A 0 µg·mL-1, [10] 125 µM, 21 h): 0.3041
growth curve reading (Kanamycin A 0 µg·mL-1, [10] 125 µM, 22 h): 0.2995
growth curve reading (Kanamycin A 0 µg·mL-1, [10] 125 µM, 23 h): 0.2966
growth curve reading (Kanamycin A 0 µg·mL-1, [10] 125 µM, 24 h): 0.2930
growth curve reading (Kanamycin A 0 µg·mL-1, [10] 250 µM, 8 h): 0.2802
growth curve reading (Kanamycin A 0 µg·mL-1, [10] 250 µM, 9 h): 0.2949
growth curve reading (Kanamycin A 0 µg·mL-1, [10] 250 µM, 10 h): 0.3074
growth curve reading (Kanamycin A 0 µg·mL-1, [10] 250 µM, 11 h): 0.3034
growth curve reading (Kanamycin A 0 µg·mL-1, [10] 250 µM, 12 h): 0.3117
growth curve reading (Kanamycin A 0 µg·mL-1, [10] 250 µM, 13 h): 0.3163
growth curve reading (Kanamycin A 0 µg·mL-1, [10] 250 µM, 14 h): 0.3216
growth curve reading (Kanamycin A 0 µg·mL-1, [10] 250 µM, 15 h): 0.3278
growth curve reading (Kanamycin A 0 µg·mL-1, [10] 250 µM, 16 h): 0.3246
growth curve reading (Kanamycin A 0 µg·mL-1, [10] 250 µM, 17 h): 0.3269
growth curve reading (Kanamycin A 0 µg·mL-1, [10] 250 µM, 18 h): 0.3250
growth curve reading (Kanamycin A 0 µg·mL-1, [10] 250 µM, 19 h): 0.3257
growth curve reading (Kanamycin A 0 µg·mL-1, [10] 250 µM, 20 h): 0.3212
growth curve reading (Kanamycin A 0 µg·mL-1, [10] 250 µM, 21 h): 0.3186
growth curve reading (Kanamycin A 0 µg·mL-1, [10] 250 µM, 22 h): 0.3158
growth curve reading (Kanamycin A 0 µg·mL-1, [10] 250 µM, 23 h): 0.3109
growth curve reading (Kanamycin A 0 µg·mL-1, [10] 250 µM, 24 h): 0.3077
growth curve reading (Kanamycin A 0 µg·mL-1, [10] 500 µM, 8 h): 0.2732
growth curve reading (Kanamycin A 0 µg·mL-1, [10] 500 µM, 9 h): 0.2819
growth curve reading (Kanamycin A 0 µg·mL-1, [10] 500 µM, 10 h): 0.2846
growth curve reading (Kanamycin A 0 µg·mL-1, [10] 500 µM, 11 h): 0.2894
growth curve reading (Kanamycin A 0 µg·mL-1, [10] 500 µM, 12 h): 0.2927
growth curve reading (Kanamycin A 0 µg·mL-1, [10] 500 µM, 13 h): 0.3029
growth curve reading (Kanamycin A 0 µg·mL-1, [10] 500 µM, 14 h): 0.3106
growth curve reading (Kanamycin A 0 µg·mL-1, [10] 500 µM, 15 h): 0.3172
growth curve reading (Kanamycin A 0 µg·mL-1, [10] 500 µM, 16 h): 0.3235
growth curve reading (Kanamycin A 0 µg·mL-1, [10] 500 µM, 17 h): 0.3285
growth curve reading (Kanamycin A 0 µg·mL-1, [10] 500 µM, 18 h): 0.3275
growth curve reading (Kanamycin A 0 µg·mL-1, [10] 500 µM, 19 h): 0.3273
growth curve reading (Kanamycin A 0 µg·mL-1, [10] 500 µM, 20 h): 0.3236
growth curve reading (Kanamycin A 0 µg·mL-1, [10] 500 µM, 21 h): 0.3156
growth curve reading (Kanamycin A 0 µg·mL-1, [10] 500 µM, 22 h): 0.3081
growth curve reading (Kanamycin A 0 µg·mL-1, [10] 500 µM, 23 h): 0.3018
growth curve reading (Kanamycin A 0 µg·mL-1, [10] 500 µM, 24 h): 0.2959
growth curve reading (Kanamycin A 8 µg·mL-1, [10] 125 µM, 8 h): 0.2269
growth curve reading (Kanamycin A 8 µg·mL-1, [10] 125 µM, 9 h): 0.2406
growth curve reading (Kanamycin A 8 µg·mL-1, [10] 125 µM, 10 h): 0.2611
growth curve reading (Kanamycin A 8 µg·mL-1, [10] 125 µM, 11 h): 0.2689
growth curve reading (Kanamycin A 8 µg·mL-1, [10] 125 µM, 12 h): 0.2747
growth curve reading (Kanamycin A 8 µg·mL-1, [10] 125 µM, 13 h): 0.2827
growth curve reading (Kanamycin A 8 µg·mL-1, [10] 125 µM, 14 h): 0.2820
growth curve reading (Kanamycin A 8 µg·mL-1, [10] 125 µM, 15 h): 0.2860
growth curve reading (Kanamycin A 8 µg·mL-1, [10] 125 µM, 16 h): 0.2854
growth curve reading (Kanamycin A 8 µg·mL-1, [10] 125 µM, 17 h): 0.2807
growth curve reading (Kanamycin A 8 µg·mL-1, [10] 125 µM, 18 h): 0.2846
growth curve reading (Kanamycin A 8 µg·mL-1, [10] 125 µM, 19 h): 0.2869
growth curve reading (Kanamycin A 8 µg·mL-1, [10] 125 µM, 20 h): 0.2848
growth curve reading (Kanamycin A 8 µg·mL-1, [10] 125 µM, 21 h): 0.2827
growth curve reading (Kanamycin A 8 µg·mL-1, [10] 125 µM, 22 h): 0.2836
growth curve reading (Kanamycin A 8 µg·mL-1, [10] 125 µM, 23 h): 0.2856
growth curve reading (Kanamycin A 8 µg·mL-1, [10] 125 µM, 24 h): 0.2906
growth curve reading (Kanamycin A 8 µg·mL-1, [10] 250 µM, 8 h): 0.2386
growth curve reading (Kanamycin A 8 µg·mL-1, [10] 250 µM, 9 h): 0.2587
growth curve reading (Kanamycin A 8 µg·mL-1, [10] 250 µM, 10 h): 0.2713
growth curve reading (Kanamycin A 8 µg·mL-1, [10] 250 µM, 11 h): 0.2824
growth curve reading (Kanamycin A 8 µg·mL-1, [10] 250 µM, 12 h): 0.2887
growth curve reading (Kanamycin A 8 µg·mL-1, [10] 250 µM, 13 h): 0.2895
growth curve reading (Kanamycin A 8 µg·mL-1, [10] 250 µM, 14 h): 0.2909
growth curve reading (Kanamycin A 8 µg·mL-1, [10] 250 µM, 15 h): 0.2885
growth curve reading (Kanamycin A 8 µg·mL-1, [10] 250 µM, 16 h): 0.2886
growth curve reading (Kanamycin A 8 µg·mL-1, [10] 250 µM, 17 h): 0.2882
growth curve reading (Kanamycin A 8 µg·mL-1, [10] 250 µM, 18 h): 0.2883
growth curve reading (Kanamycin A 8 µg·mL-1, [10] 250 µM, 19 h): 0.2910
growth curve reading (Kanamycin A 8 µg·mL-1, [10] 250 µM, 20 h): 0.2912
growth curve reading (Kanamycin A 8 µg·mL-1, [10] 250 µM, 21 h): 0.2907
growth curve reading (Kanamycin A 8 µg·mL-1, [10] 250 µM, 22 h): 0.2906
growth curve reading (Kanamycin A 8 µg·mL-1, [10] 250 µM, 23 h): 0.2942
growth curve reading (Kanamycin A 8 µg·mL-1, [10] 250 µM, 24 h): 0.2964
growth curve reading (Kanamycin A 8 µg·mL-1, [10] 500 µM, 8 h): 0.2276
growth curve reading (Kanamycin A 8 µg·mL-1, [10] 500 µM, 9 h): 0.2491
growth curve reading (Kanamycin A 8 µg·mL-1, [10] 500 µM, 10 h): 0.2720
growth curve reading (Kanamycin A 8 µg·mL-1, [10] 500 µM, 11 h): 0.2895
growth curve reading (Kanamycin A 8 µg·mL-1, [10] 500 µM, 12 h): 0.2989
growth curve reading (Kanamycin A 8 µg·mL-1, [10] 500 µM, 13 h): 0.3019
growth curve reading (Kanamycin A 8 µg·mL-1, [10] 500 µM, 14 h): 0.3013
growth curve reading (Kanamycin A 8 µg·mL-1, [10] 500 µM, 15 h): 0.2986
growth curve reading (Kanamycin A 8 µg·mL-1, [10] 500 µM, 16 h): 0.2975
growth curve reading (Kanamycin A 8 µg·mL-1, [10] 500 µM, 17 h): 0.2960
growth curve reading (Kanamycin A 8 µg·mL-1, [10] 500 µM, 18 h): 0.2947
growth curve reading (Kanamycin A 8 µg·mL-1, [10] 500 µM, 19 h): 0.2901
growth curve reading (Kanamycin A 8 µg·mL-1, [10] 500 µM, 20 h): 0.2881
growth curve reading (Kanamycin A 8 µg·mL-1, [10] 500 µM, 21 h): 0.2873
growth curve reading (Kanamycin A 8 µg·mL-1, [10] 500 µM, 22 h): 0.2838
growth curve reading (Kanamycin A 8 µg·mL-1, [10] 500 µM, 23 h): 0.2819
growth curve reading (Kanamycin A 8 µg·mL-1, [10] 500 µM, 24 h): 0.2788
growth curve reading (Kanamycin A 16 µg·mL-1, [10] 125 µM, 8 h): 0.1586
growth curve reading (Kanamycin A 16 µg·mL-1, [10] 125 µM, 9 h): 0.1951

Source: PMC12678819, “Targeting bacterial kinases as a strategy to counteract antibiotic resistance” (2025)
